Pooled drug test results. Numbers come from NIAID ChemDB, via PubChem.

ICn: concentration for n% inhibition. MIC50, MIC90 and the like: level of inhibition, or share of isolates inhibited. ECn: concentration that inhibits the pathogen or its effect by n%. Rows are shuffled and stem from different studies. Blank or dashed fields: not listed here. Inhibition is in % at the dose shown (toxicity tests: loss of growth or viability).

SMILES	test	species	strain or isolate	cell line	target	method	read-out	tested at	value
CN(Cc1ccc2nc(N)nc(N)c2n1)c1ccc(Cl)cc1	target	Cryptosporidium parvum	TYPE 2	-	Dihydrofolate reductase	-	IC50	-	9.1 µM
C=CCc1ccc(OC)c(OC)c1	culture	Candida albicans	3031	-	-	turbidity	MIC90	-	350 µg/mL
O=C(Nc1cc(S(=O)(=O)O)cc2cc(S(=O)(=O)O)cc(O)c12)c1ccccc1	culture	Rhinovirus	-	Human amnion AV3 cells	-	cytopathic effect	inhibition	10 µg/mL	5%
CCOC(=O)c1c(C)nc(NCCCCNc2ccnc3cc(Cl)ccc23)nc1-c1ccccc1[N+](=O)[O-]	culture	Cryptococcus gattii	L-28/02	-	-	-	MIC99	-	8 µg/mL
Fc1ccc(-c2cncc(N3CCN(c4ccccc4F)CC3)n2)cc1	target	Cytomegalovirus	-	-	UL97 kinase	-	IC50	-	<10 µM
CCC(CC)[C@H](NC(C)=O)[C@@H]1[C@H](O)[C@@H](C(=O)O)C[C@H]1N=C(N)N	culture	Influenza A virus	Influenza A/Sydney/05/97 (H3N2)	MDCK	-	visual reading	EC50	-	0.12 µM
CCOC(=O)/C=C/[C@H](C[C@@H]1CCNC1=O)NC(=O)[C@@H](CC(=O)[C@@H](NC(=O)c1cc(C)on1)C(C)C)Cc1ccc(F)cc1	culture	Rhinovirus	Isolate 45	OHIO HELA-I	-	cytopathic effect / visual reading	EC50	-	0.01 µg/mL
COc1ccc2cc(-c3cncc(N4CCN(c5ccc(OC)c(OC)c5)CC4)n3)ccc2c1	target	Cytomegalovirus	-	-	UL97 kinase	-	IC50	-	<10 µM
O=S(=O)([O-])c1ccc(O)c2ccccc12	culture	Adenovirus	TYPE 3	Human embryonic lung cells	-	cytopathic effect	inhibition	50 µg/mL	0%
COc1cc(NCc2ccc3nc(N)nc(N)c3c2Cl)c(Br)c(OC)c1OC	target	Cryptosporidium parvum	TYPE 1	-	Dihydrofolate reductase	-	IC50	-	>10 µM
Oc1ccccc1N=Cc1ccccc1	culture	Cryptococcus neoformans	96806	-	-	-	MIC99	-	5.7 µg/mL
COc1cc(NCc2cccc3nc(N)nc(N)c23)cc(OC)c1OC	target	Cryptosporidium parvum	TYPE 2	-	Dihydrofolate reductase	-	IC50	-	>10 µM
O=[N+]([O-])c1ccc(C=Nc2ccccc2O)cc1	culture	Cryptococcus neoformans	5396	-	-	-	MIC99	-	22.6 µg/mL
COc1ccccc1N1CCN(c2cncc(-c3ccccc3C)n2)CC1	target	Cytomegalovirus	-	-	UL97 kinase	-	IC50	-	<100 µM
Cc1sc2nc(N)nc(N)c2c1-c1ccc(Cl)cc1	target	Cryptosporidium parvum	TYPE 1	-	Dihydrofolate reductase	-	IC50	-	>10 µM
O=[N+]([O-])c1cc([N+](=O)[O-])c2ccc(S(=O)(=O)O)cc2c1O	culture	Adenovirus	TYPE 3	Human embryonic lung cells	-	cytopathic effect	inhibition	10 µg/mL	10%
Nc1nc(N)c2c(n1)Cc1c(Cl)cccc1-2	target	Cryptosporidium parvum	TYPE 2	-	Dihydrofolate reductase	-	IC50	-	>10 µM
COc1cc(-c2ccc(N=Nc3ccc4c(S(=O)(=O)O)cc(S(=O)(=O)O)c(N)c4c3O)c(OC)c2)ccc1N=Nc1ccc2c(S(=O)(=O)O)cc(S(=O)(=O)O)c(N)c2c1O	culture	Rhinovirus	-	Human embryonic lung cells	-	cytopathic effect	inhibition	10 µg/mL	0%
CCOC(=O)c1ccc(OCCC2CCN(c3ccc(C)nn3)CC2)cc1	culture	Rhinovirus	16/60 (ICAM-1 receptor group 4)	KB	-	neutral red	EC50	-	0.016 µM
Fc1ccc(-c2cncc(N3CCN(c4ccccc4)CC3)n2)cc1	target	Cytomegalovirus	-	-	UL97 kinase	-	IC50	-	<10 µM
Fc1ccc(N2CCCCC2)c(NC(=S)c2ccncc2)c1	host protein	-	-	-	IR	kinase activity	inhibition	10 µM	17%
Nc1nc(N)c2nc(CN3c4ccccc4Cc4ccccc43)cnc2n1	target	Cryptosporidium parvum	TYPE 1	-	Dihydrofolate reductase	-	IC50	-	1.7 µM
Oc1ccccc1N=Cc1ccc(F)cc1	culture	Cryptococcus neoformans	27JF	-	-	broth dilution	MIC	-	16 µg/mL
Nc1nc(N)c2c(n1)CCC(Cc1cccc(C(F)(F)F)c1)C2	target	Cryptosporidium parvum	TYPE 2	-	Dihydrofolate reductase	-	IC50	-	0.45 µM
O=C(Nc1ccc2c(O)c(N=Nc3ccc(N=Nc4ccc(S(=O)(=O)O)cc4)cc3)c(S(=O)(=O)O)cc2c1)c1ccccc1	culture	Adenovirus	TYPE 3	Human amnion AV3 cells	-	cytopathic effect	inhibition	5 µg/mL	0%
CC(=O)c1ccc(-c2cncc(N3CCN(c4ccncc4)CC3)n2)s1	target	Cytomegalovirus	-	-	UL97 kinase	-	IC50	-	<1 µM
O=C(Nc1ccc2cc(S(=O)(=O)[O-])cc(S(=O)(=O)[O-])c2c1)c1ccccc1	culture	Adenovirus	TYPE 3	Human embryonic lung cells	-	cytopathic effect	inhibition	5 µg/mL	0%
Nc1nc(N)c2nc(CN3c4ccccc4C=Cc4ccccc43)cnc2n1	target	Cryptosporidium parvum	TYPE 1	-	Dihydrofolate reductase	-	IC50	-	2.1 µM

Repeating the final 2 entries:

SMILES | test | species | strain or isolate | cell line | target | method | read-out | tested at | value
O=C(Nc1ccc2cc(S(=O)(=O)[O-])cc(S(=O)(=O)[O-])c2c1)c1ccccc1 | culture | Adenovirus | TYPE 3 | Human embryonic lung cells | - | cytopathic effect | inhibition | 5 µg/mL | 0%
Nc1nc(N)c2nc(CN3c4ccccc4C=Cc4ccccc43)cnc2n1 | target | Cryptosporidium parvum | TYPE 1 | - | Dihydrofolate reductase | - | IC50 | - | 2.1 µM